Tests used:
[1] = biological target: MHC class II (HLA-DR1) on human LG-2 cells (human); assay: Scatchard analysis, 125I-labelled toxin on LG-2 cells; high affinity site
[2] = biological target: MHC class II (HLA-DR1) on human LG-2 cells (human); assay: Scatchard analysis, 125I-labelled toxin on LG-2 cells; low affinity site
[3] = biological target: MHC class II (HLA-DR1) on human LG-2 cells (human)

recombinant SPE-H superantigen (mature)
Kd [1]: 37 nM | Kd [2]: 2000 nM | percent competition [3]: 50%

Source: patent US20050153376A1
